Data source: PubChem BioAssay AID624099 (ICCB-Longwood, 2012)
Shown is a random part of about 21,000 reagents. 497 of all reagents (2.4%) were called active. 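Higher z means weaker E2 silencing; only reporter increases were scored, and knock-downs that hurt cell survival may mask genuine repressor factors.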 A number with no mark means an inactive call.

Screen: 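Human genes that papillomavirus E2 requires to repress the HPV18 LCR promoter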 (primary screen)
Cell system: human C33A cervical carcinoma cells (HPV-negative) stably expressing BPV1 E2 and an HPV18 LCR luciferase reporter
Reagent: siRNA pool against human genes, 40 nM
Duration: 72 h
Detection: 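HPV18 LCR reporter light per well, converted to plate-wise z-scores that exclude control wells, and averaged over triplicate plates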
Scale: mean z-score and z-score: higher = stronger reporter signal, weaker E2 silencing
Rule for the call: 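Mean z ≥ 2 together with z ≥ 2 in two or more of the three replicates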

gene | mean z-score | z-score, replicate A | z-score, replicate B | z-score, replicate C
MARCHF7 | -0.25 | -0.5 | 0.12 | -0.37
LOC402693 (retired record) | -0.15 | 0.34 | -0.29 | -0.49
ADAT1 | -0.41 | -0.68 | -0.4 | -0.15
MAPKAP1 | 1.05 | 1.01 | 1.19 | 0.94
OPA3 | 1.17 | 0.97 | 0.96 | 1.59
THOC6 | 0.19 | 0.51 | 0.37 | -0.3
COXFA4L3 | -0.87 | -0.63 | -1.01 | -0.98
KTN1-AS1 | 1.47 | 1.23 | 1.67 | 1.51
CFAP99 | -0.8 | -0.29 | -1.33 | -0.79
CDC42BPA | -0.21 | -0.75 | -0.33 | 0.45
DKKL1 | 0.64 | 0.98 | 0.57 | 0.38
ZNF629 | 0.63 | 0.56 | 0.8 | 0.53
USP42 | -0.7 | -0.53 | -0.74 | -0.85
LSM4 | -1.23 | -1.32 | -1.36 | -1
OPN1SW | -0.82 | -0.81 | -0.82 | -0.82
IL4I1 | 0.52 | 0.65 | 0.1 | 0.83
PURPL | -0.39 | -0.49 | -0.21 | -0.46
BHLHE41 | 0.72 | 0.92 | 0.71 | 0.54
ZNF467 | 0.04 | -0.05 | 0.13 | 0.03
FAM151AP1 | -0.13 | -0.12 | -0.29 | 0.03
PAX6 | -0.15 | 0.01 | -0.32 | –
CCR2 | -0.3 | -0.7 | -0.24 | 0.05
CCSAP | 0.18 | 0.21 | 0.27 | 0.07
TRIM2 | -1.21 | -1.25 | -1.29 | -1.09
ZFP82 | 1.15 | 1.14 | 1.08 | 1.25
ESRP1 | -0.39 | -0.46 | -0.39 | -0.31
MT-ATP8 | 0.11 | 0.01 | 0.14 | 0.18
MT1F | -0.87 | -0.69 | -0.97 | -0.94
H2AC16 | -0.27 | -0.02 | -0.5 | -0.27
KCNK16 | 0.28 | 0.14 | 0.56 | 0.14
RFX6 | 0.52 | 0.75 | 0.29 | 0.61
KLRG1 | 1.16 | 1.08 | 1.11 | 1.28
ANP32E | -0.26 | 0 | -0.06 | -0.72
PSME1 | -0.14 | -0.3 | -0.03 | -0.09
LOC642846 | -0.43 | -0.39 | -0.12 | -0.77
RNLS | 1.82 | 2.09 | 2.08 | 1.28
IFNA4 | -0.15 | -0.33 | -0.12 | 0
ITIH2 | 0 | -0.11 | 0.23 | -0.1
C14orf132 | -0.83 | -0.78 | -0.94 | -0.76
